Measured values from several laboratories, pooled; numbers as filed in NIAID ChemDB.

All rows: whole-cell or culture tests; species: HIV-1; cell line: CEM; method: syncytia; endpoint: fold resistance

Fold resistance has wild type as its base. Lines come from different laboratories, so protocols vary. Blank or dashed fields: not listed here.

compound,changes,strain or isolate,result
CCOCn1c(Cc2cc(C)cc(C)c2)c(CC)c(=O)[nH]c1=O,RT-L100I E138K,IIIB TIBO R82913 STR-B02 (RT L100I E138K),100
CC(C)=CCN1Cc2cc(Cl)cc3[nH]c(=S)n(c23)C[C@@H]1C,RT-V106A,IIIB NEV(RT-V106A),25
Cc1cn([C@@H]2O[C@H](CO[Si](C)(C)C(C)(C)C)C3(OS(=O)(=O)C=C3N)[C@H]2O[Si](C)(C)C(C)(C)C)c(=O)n(C)c1=O,RT-L100I,IIIB TIBO R82150-resistant (RT L100I),1.67
CCOCn1c(Cc2cc(C)cc(C)c2)c(CC)c(=O)[nH]c1=O,RT-V106A,IIIB NEV(RT-V106A),10
O=c1[nH]cnc2c1ncn2[C@H]1CC[C@@H](CO)O1,RT-V179N,IIIB-Pyridinone(0.1)(RT-V179N,1.74
Nc1nc2c(ncn2[C@H]2CC[C@@H](CO)O2)c(=O)[nH]1,RT-Y181C,IIIB nevirapine-resistant (RT Y181C),3
C=C(C)OC(=O)N1c2cc(Cl)ccc2NC(=S)C1(C)C,RT-L100I,TIBO-1(RT-L100I),3.79
Cc1cn([C@@H]2O[C@H](CO[Si](C)(C)C(C)(C)C)[C@@]3(OS(=O)(=O)C=C3N)[C@H]2O[Si](C)(C)C(C)(C)C)c(=O)[nH]c1=O,RT-Y181C,IIIB nevirapine-resistant (RT Y181C),83.3
Cc1cn([C@@H]2O[C@H](CO[Si](C)(C)C(C)(C)C)C3(OS(=O)(=O)C=C3N)[C@H]2O[Si](C)(C)C(C)(C)C)c(=O)n(C)c1=O,RT-Y181C,IIIB-TSAO-m3T(10)(RT-Y181C),1670
O=C1N(Cc2ccccc2)c2cscc2S(=O)(=O)N1Cc1ccccc1,RT-V106A,-,≥5.78
Nc1ncnc2c1ncn2CC(CF)OCP(=O)(O)O,RT-L100I,IIIB TIBO R82150-resistant (RT L100I),0.667
CCNc1cccnc1N1CCN(C(=O)c2cc3cc(OC)ccc3[nH]2)CC1,RT-Y181C,IIIB PYR(RT-Y181C),20
CCN1C(=O)N(Cc2ccccc2)S(=O)(=O)c2cscc21,RT-Y181C,-,>111
Nc1nc2c(ncn2[C@H]2CC[C@@H](CO)O2)c(=O)[nH]1,RT-L100I,TIBO-1(RT-L100I),0.25
Nc1ccn([C@H]2CC[C@@H](CO)O2)c(=O)n1,RT-L100I E138K,IIIB TIBO R82913 STR-B02 (RT L100I E138K),0.3
CCc1cc(NCc2nc3c(Cl)ccc(Cl)c3o2)c(=O)[nH]c1C,RT-K103N,IIIB TIBO R82913-resistant (RT K103N),71.4
Cc1cn([C@@H]2O[C@H](CO[Si](C)(C)C(C)(C)C)C3(OS(=O)(=O)C=C3N)[C@H]2O[Si](C)(C)C(C)(C)C)c(=O)n(C)c1=O,RT-G190E,MN-QUIN(RT-G190E),187.5
Nc1ccn([C@H]2CC[C@@H](CO)O2)c(=O)n1,RT-V179N,IIIB-Pyridinone(0.1)(RT-V179N,0.4
CN1C(=O)N(Cc2ccccc2)S(=O)(=O)c2cscc21,RT-L100I,-,5.65
CCn1c(=O)c(C)cn([C@@H]2O[C@H](CO[Si](C)(C)C(C)(C)C)C3(OS(=O)(=O)C=C3N)[C@H]2O[Si](C)(C)C(C)(C)C)c1=O,RT-L100I,IIIB BHAP(RT-L100I),1.33
Nc1ncnc2c1ncn2CCOCP(=O)(O)O,RT-Y181C,IIIB-Nevirapine(1.0)(RT-Y181C),3.14
CC(C)Nc1cccnc1N1CCN(C(=O)c2cc3ccccc3[nH]2)CC1,RT-Y188H,HEPT (RT Y188H),22
N#CCN1C(=O)N(Cc2ccccc2)S(=O)(=O)c2cscc21,RT-V106A,-,130

The last 2 rows once more:

| compound | changes | strain or isolate | result |
|---|---|---|---|
| CC(C)Nc1cccnc1N1CCN(C(=O)c2cc3ccccc3[nH]2)CC1 | RT-Y188H | HEPT (RT Y188H) | 22 |
| N#CCN1C(=O)N(Cc2ccccc2)S(=O)(=O)c2cscc21 | RT-V106A | - | 130 |